Measured values from several laboratories, pooled; numbers as filed in NIAID ChemDB.

Shared fields: toxicity to cultured cells; cells: HSB-2; measure: CC50

CCn is the concentration with n% toxicity to the cells.

structure	read by	value
Nc1ncnc2c1ncn2/C=C1/CC1(CO)CO		47 µM
O[C@@H]1[C@H](O)[C@H](O)CO[C@H]1n1c(Br)nc2cc(Cl)c(Cl)cc21	neutral red	>125 µM
Nc1nc2c(ncn2/C=C2/CC2(CO)CO)c(=O)[nH]1		104 µM
Cn1cc(C(=O)NCc2ccc(Cl)cc2)c(=O)c2c1SC(CN1CCOCC1)C2	MTS	>23.1 µM
OCC1OC(n2c(Br)nc3cc(Cl)c(Cl)cc32)C(O)C1O	ATP	62 µM
Cc1cn([C@H]2S[C@@H](CO)[C@H](O)[C@H]2O)c(=O)[nH]c1=O		>100 µg/mL
CCCOc1nc(N)nc2c1ncn2/C=C1/C[C@@H]1CO		26 µM
O[C@@H]1[C@H](O)[C@H](O)CO[C@H]1n1c(Br)nc2cc(Cl)c(Cl)cc21	ATP	43 µM
Nc1nc(NCC2CC2)c2ncn(/C=C3/C[C@@H]3CO)c2n1		>175 µM
O[C@@H]1[C@H](O)CO[C@H]1n1c(NC2CC2)nc2cc(Cl)c(Cl)cc21	ATP	>100 µM
CCCCCCCCCCCCOCCCOP1(=O)CO[C@@H](Cn2ccc(N)nc2=O)CO1		>1 µM
C[C@H]1O[C@H](n2c(Br)nc3cc(Cl)c(Cl)cc32)[C@@H](O)[C@H]1O	ATP	15 µM
CC(C)Nc1nc2cc(Cl)c(Cl)cc2n1[C@H]1O[C@@H](CO)[C@H](O)[C@@H]1O	neutral red	>133 µM
Nc1ccn(/C=C2/CC2(CO)CO)c(=O)n1		41 µM
OC[C@H]1CC(n2c(NC3CC3)nc3cc(Cl)c(Cl)cc32)[C@H](O)[C@@H]1O	ATP	82 µM

2 of the rows above, restated:

structure	read by	value
O[C@@H]1[C@H](O)[C@H](O)CO[C@H]1n1c(Br)nc2cc(Cl)c(Cl)cc21	ATP	43 µM
C[C@H]1O[C@H](n2c(Br)nc3cc(Cl)c(Cl)cc32)[C@@H](O)[C@H]1O	ATP	15 µM

Rows are shuffled and stem from different studies. An empty or dashed field is not shown.